Experiment: Selectivity index ratio of CC50 / EC50 was determined
Assay type: functional

In the case of `NC(=O)c1ncn([C@@H]2O[C@H](CO)[C@@H](O)[C@H]2O)n1` [RIBAVIRIN], the Ratio is reported as > 47.6.

— ChEMBL document CHEMBL1129818, “Discovery of anti-influenza A virus activity of a corynanthe-type indole alkaloid, hirsutine, in vitro and the structure-activity relationship of natural and synthetic analogs” (Bioorg Med Chem Lett, 1997)
